Test results: patent US20150018228A1, “ENZYME DETECTION BY MICROFLUIDICS” (priority 2011, published 2015)
For some assays here: The exact form of at least one protein or probe is not confirmed. For some assays here: Tags and fusion partners may be left off the protein sequences shown.

Key:
[1] = tested on: Plasmodium falciparum topoisomerase I (pfTopI) (Plasmodium falciparum); test: activity assay; conditions: purified recombinant protein, folded or branched DNA
[2] = tested on: Plasmodium falciparum topoisomerase I (pfTopI) (Plasmodium falciparum); test: enzyme reaction in vitro; conditions: cleaves hTopI site plus additional sites close to 3'-end; 10 mM Tris pH 7.5, 5 mM MgCl2, 5 mM CaCl2, 37 C, with or without 60 uM CPT; purified recombinant protein; label: 5'-32P on OL62
[3] = target: T1, Plasmodium falciparum topoisomerase I (endogenous, infected blood) (Plasmodium falciparum) (UniProt Q26024); test: activity assay; conditions: REEAD signal only with extract of P. falciparum-infected blood; protein in an extract; folded or branched DNA
T1 sequence (looked up, limits assumed): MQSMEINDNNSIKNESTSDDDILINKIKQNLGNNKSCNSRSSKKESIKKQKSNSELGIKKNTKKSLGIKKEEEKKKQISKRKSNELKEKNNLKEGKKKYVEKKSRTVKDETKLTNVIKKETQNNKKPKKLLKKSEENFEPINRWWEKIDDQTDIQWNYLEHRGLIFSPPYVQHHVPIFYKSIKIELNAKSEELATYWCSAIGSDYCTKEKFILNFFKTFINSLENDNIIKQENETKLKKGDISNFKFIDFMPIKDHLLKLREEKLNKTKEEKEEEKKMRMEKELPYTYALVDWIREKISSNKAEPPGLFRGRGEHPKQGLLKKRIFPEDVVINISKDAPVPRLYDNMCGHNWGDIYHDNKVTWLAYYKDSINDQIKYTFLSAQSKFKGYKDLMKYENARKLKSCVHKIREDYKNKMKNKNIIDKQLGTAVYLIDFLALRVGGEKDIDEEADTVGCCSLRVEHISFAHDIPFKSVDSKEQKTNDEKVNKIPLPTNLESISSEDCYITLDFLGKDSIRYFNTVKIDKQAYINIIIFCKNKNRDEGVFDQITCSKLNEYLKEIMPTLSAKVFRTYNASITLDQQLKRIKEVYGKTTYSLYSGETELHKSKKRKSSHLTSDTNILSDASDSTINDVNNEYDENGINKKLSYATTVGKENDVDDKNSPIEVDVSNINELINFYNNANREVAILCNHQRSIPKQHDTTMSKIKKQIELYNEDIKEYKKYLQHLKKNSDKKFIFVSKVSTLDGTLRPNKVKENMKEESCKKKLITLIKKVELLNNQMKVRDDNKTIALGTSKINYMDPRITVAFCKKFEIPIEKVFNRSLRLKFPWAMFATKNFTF

[4] = circularization by REEAD, less efficient than S1

Row | Sequence | activity on this sequence [1, 4] | also measured
1 | AGAAAAATTTTTAAAAAAACTGTGAAGATCGCTTATTTTTTTAAAAATTTTTCTAAGTCTTTTAGATCCCTCAATGCTGCTGCTGTACTACGATCTAAAAGACTTAGA [S(TopI)] | – | activity on this sequence ([1]; 3'-amine (as printed in sequence list), circularization by REEAD, pfTopI more salt tolerant than hTopI): active
2 | ATTATAATTTTTTGGAACTTCGAACGACTCAGAATGACTGTGAAGATCGCTTATCCTCAATGCACATGTTTGGCTCCCATTCTGAGTCGTTCGAAGTTCCAAAAAATT [pfTopI(S3)] | active | –
3 | ATTTTTCTAAGTCTTTTAGATCGAACGACTCAGAATGACTGTGAAGATCGCTTATCCTCAATGCACATGTTTGGCTCCCATTCTGAGTCGTTCGATCTAAAAGACTTAGA [pfTopI(S5)] | active | –
4 | CATACATTATACGAAGTTATGAGCGTCTGAGTATGACTGTGAAGATCGCTTATCAGTGAATGCGAGTCCGTCTACTCATACTCAGACGCTCATAACTTCGTATAATGT [pfTopI(S2)] | active | –
5 | GCCTGCAGGTCGACTCTAGAGGATCTAAAAGACTTAGAAAAATTTTTAGGCTCAATCTAGAAGTTCCTACTTAGA / ATTTTTCTAAGTAGGAACTTCTAGATTGAGCCTAAAAATTTTTCTAAGTCTTTTAGATCCTCTAGAGTCGACCTGCAGGC [OL62/OL63] | – | activity on this sequence [2]: active
6 | TCTAGAAAGTATAGGAACTTCGAACGACTCAGAATGACTGTGAAGATCGCTTATCCTCAATGCACATGTTTGGCTCCCATTCTGAGTCGTTCGAAGTTCCTATACTTT [pfTopI(S1)] | – | activity on this sequence ([1]; cleavage-ligation circularization detected by RCA (REEAD), most efficient of S1-S5, 5 mM EDTA, 37 C): active; activity on this sequence [3]: active
7 | TTATAATTTTTTGGAACTTCGAACGACTCAGAATGACTGTGAAGATCGCTTATCCTCAATGCACATGTTTGGCTCCCATTCTGAGTCGTTCGAAGTTCCAAAAAATT [pfTopI(S4)] | active | –
